Anti-infective test results gathered from many reports (values: NIAID ChemDB through PubChem).

Common to all: growth or infection tests; agent: HIV-1; cells: H9; endpoint: EC50

Blank or dashed fields: not listed here. Conditions beyond the fields shown may differ between rows. ECn: concentration that inhibits the pathogen or its effect by n%.

{"structure": "CC(=O)O[C@@H]1[C@@H]2[C@@H](OC(C)=O)[C@@]34O[C@@]2(C)COC(=O)c2cnccc2[C@@H](C)[C@@](C)(O)C(=O)O[C@@H]([C@H](OC(C)=O)[C@H](OC(C)=O)[C@@]3(COC(=O)c2ccoc2)[C@@H]1OC(C)=O)C4(C)O", "read by": "p24", "result": "0.13 µg/mL"}
{"structure": "CCOC(=O)c1cc(C(=O)c2ccc(F)cc2)n2ccc(C(=O)NCc3ccccn3)cc12", "strain or isolate": "NL4-3", "read by": "ELISA", "result": "54.4 µM"}
{"structure": "COc1ccc(C(O)c2ccccc2C(=O)Nc2ccccc2OC)cc1", "strain or isolate": "LAI", "result": ">100 µM"}
{"structure": "COc1c(Br)c2c(c(OC)c1OC)-c1c(c(Br)c3c(c1OC)OCO3)C[C@@H](C)[C@@H](C)C2", "strain or isolate": "IIIB", "read by": "p24", "result": "4 µg/mL"}
{"structure": "CCOC(=O)c1cc(C(=O)c2ccccc2)n2ccc(C(=O)N[C@@H](Cc3c[nH]c4ccccc34)C(=O)OC)cc12", "strain or isolate": "NL4-3", "read by": "ELISA", "result": "103.2 µM"}
{"structure": "Cc1cccc(CNc2nc3cc(C(=O)NC(C)CO)ccc3n2C2CCCCCC2)c1F", "read by": "syncytia", "conditions": "2% FBS", "result": "0.8 µM"}
{"structure": "O=C(OC1[C@H](OC(=O)c2cc(O)c(O)c(O)c2)CC(OC(=O)c2cc(O)c(O)c(O)c2)(C(=O)O)C[C@H]1OC(=O)c1cc(O)c(O)c(O)c1)c1cc(O)c(O)c(O)c1", "strain or isolate": "IIIB", "read by": "p24", "result": "~6.25 µM"}
{"structure": "Cc1cccc(CNc2nc3cc(C(=O)NC(C)(CO)CO)ccc3n2C2CCCCCC2)c1C", "read by": "syncytia", "conditions": "2% FBS", "result": "3 µM"}
{"structure": "CC(=O)OC[C@]12[C@H](OC(C)=O)[C@H](OC(C)=O)[C@@H]3[C@@H](OC(=O)c4ccccc4)[C@@]14O[C@@]3(C)COC(=O)c1cccnc1[C@@H](C)[C@H](C)C(=O)O[C@@H]([C@H](OC(C)=O)[C@@H]2OC(C)=O)C4(C)O", "read by": "p24", "result": "0.9 µg/mL"}
{"structure": "COc1cc2c(c(OC)c1OC)-c1c(cc3c(c1OC)OCO3)C[C@H](C)[C@@](C)(O)C2", "strain or isolate": "IIIB", "read by": "p24", "result": "12 µg/mL"}
{"structure": "O=P(O)(O)OP(=O)(O)OP(=O)(O)OP(=O)(O)O", "strain or isolate": "IIIB", "read by": "RT activity", "result": ">100 µg/mL"}
{"structure": "COc1c(Br)c2c(c(OC)c1OC)-c1c(c(Br)c(OC)c(OC)c1OC)C[C@H](C)[C@H](C)C2", "strain or isolate": "IIIB", "read by": "p24", "result": "20 µg/mL"}
{"structure": "COc1ccc(-c2c(C)nc3c(N4CC[C@@H](NS(C)(=O)=O)C4)cc(C)nn23)cc1F", "read by": "p24", "result": "0.1 µM"}
{"structure": "CCOC(=O)c1cc(C(=O)c2ccc(Cl)cc2)n2ccc(C(=O)NCc3ccccn3)cc12", "read by": "p24 / antigen", "result": "98.1 µM"}
{"structure": "COC(=O)c1ccc(C(O)c2ccccc2NC(=O)c2ccccc2OC)cc1", "strain or isolate": "LAI", "result": ">100 µM"}
{"structure": "COc1ccc(-c2c(C)nc3c(N4CC[C@@H](NC(=O)Oc5ccc6ccccc6c5)C4)cc(C)nn23)cc1OC", "read by": "p24", "result": "0.3 µM"}
{"structure": "CC(=O)OC[C@]12[C@H](OC(C)=O)[C@H](OC(C)=O)[C@@H]3[C@@H](OC(C)=O)[C@@]14O[C@@]3(C)COC(=O)c1cnccc1[C@@H](C)[C@@](C)(O)C(=O)O[C@@H]([C@H](OC(=O)c1ccoc1)[C@@H]2OC(C)=O)C4(C)O", "read by": "p24", "result": "0.1 µg/mL"}
{"structure": "CC(C)CCC[C@@H](C)[C@H]1CCC2C3CCC4C[C@@H](O[C@@H]5O[C@H](COS(=O)(=O)[O-])[C@@H](O[C@H]6O[C@H](COS(=O)(=O)[O-])[C@@H](O[C@H]7O[C@H](COS(=O)(=O)[O-])[C@@H](O[C@H]8O[C@H](COS(=O)(=O)[O-])[C@@H](OS(=O)(=O)[O-])[C@H](OS(=O)(=O)[O-])[C@H]8OS(=O)(=O)[O-])[C@H](OS(=O)(=O)[O-])[C@H]7OS(=O)(=O)[O-])[C@H](OS(=O)(=O)[O-])[C@H]6OS(=O)(=O)[O-])[C@H](OS(=O)(=O)[O-])[C@H]5OS(=O)(=O)[O-])CC[C@]4(C)C3CC[C@@]21C", "strain or isolate": "IIIB", "read by": "p24 / ELISA / antigen", "result": "14 µg/mL"}
{"structure": "C[C@@H]1O[C@H]2O[C@H]3[C@@H](OC[C@@H](O)[C@@H]3O)OC(=O)[C@]34CCC(C)(C)C[C@@]3(C)C3=CC[C@@]5(C)[C@@](C)(CC[C@@H]6[C@](C)(CO)[C@@H](O[C@@H]7O[C@H](CO)[C@@H](O)[C@H](O)[C@H]7O[C@@H]7O[C@@H](C(=O)C[C@](C)(O)CC(=O)O[C@@H]1[C@@H](O[C@@H]1OC[C@@H](O)[C@H](O)[C@H]1O)[C@H]2O)[C@H](O)[C@H](O)[C@H]7O)[C@@H](O)C[C@@]65C)[C@]3(C)CC4", "strain or isolate": "RF", "read by": "cytopathic effect / XTT", "result": "19.7 µg/mL"}
{"structure": "CCOC(=O)c1cc(C(=O)c2ccc(N)cc2)n2ccc(C(=O)NCc3ccccn3)cc12", "strain or isolate": "NL4-3", "read by": "ELISA", "result": "108.7 µM"}
{"structure": "COc1ccc(-c2c(C)nc3c(N4CCC(F)(F)C4)cc(C)nn23)cc1OC", "read by": "p24", "result": "1 µM"}
{"structure": "CCOC(=O)c1cc(C(=O)c2ccco2)n2ccc(C(=O)NCc3ccccn3)cc12", "strain or isolate": "NL4-3", "read by": "ELISA", "result": "48.7 µM"}
{"structure": "COC(=O)c1c2c(c(OC)c(Br)c1-c1c(Br)c(OC)c3c(c1C(=O)OC)OCO3)OCO2", "strain or isolate": "IIIB", "read by": "p24", "result": ">45 µg/mL"}
{"structure": "CCOC(=O)c1cc(C(=O)c2ccc3ccccc3c2)n2ccc(C(=O)c3ccccc3)cc12", "read by": "p24 / antigen", "result": "36.1 µM"}
{"structure": "COc1ccccc1C(=O)Nc1ccccc1C(O)c1ccc([N+](=O)[O-])cc1", "strain or isolate": "LAI", "result": "34 µM"}
{"structure": "C/C=C(/C)C(=O)OC1c2cc3c(c(OC)c2-c2c(cc4c(c2OC)OCO4)C[C@H](C)[C@H]1C)OCO3", "strain or isolate": "IIIB", "read by": "p24", "result": "11 µg/mL"}
{"structure": "COc1ccc(-n2cnc3c(N4CC[C@@H](NC(C)=O)C4)ncnc32)cc1OC", "read by": "p24", "result": ">100 µM"}
{"structure": "Cc1cc(C)cc(CNc2nc3cc(C(=O)NC(C)(CO)CO)ccc3n2C2CCCCCC2)c1", "read by": "syncytia", "conditions": "2% FBS", "result": "0.75 µM"}
{"structure": "CCOC(=O)c1cc(C(=O)c2cccc(N)c2)n2ccc(C(=O)NCc3ccccn3)cc12", "read by": "p24 / antigen", "result": "22.3 µM"}
{"structure": "CCOC(=O)c1cc(C(=O)c2ccc(C(F)(F)F)cc2)n2ccc(C(=O)NCc3ccccn3)cc12", "strain or isolate": "NL4-3", "read by": "ELISA", "result": "20.5 µM"}
{"structure": "Cc1ccccc1CNc1nc2cc(C(=O)NC(C)(CO)CO)ccc2n1C1CCCCCC1", "read by": "syncytia", "conditions": "20% FBS", "result": "18 µM"}
{"structure": "CC(=O)N[C@@H]1CCN(c2cc(C)nn3c(-c4ccc5cc[nH]c5c4)c(C)nc23)C1", "read by": "p24", "result": "0.7 µM"}
{"structure": "COc1ccccc1NC(=O)c1ccccc1Oc1ccc(OCO)c(OCO)c1", "strain or isolate": "LAI", "result": "12.6 µM"}
{"structure": "COc1ccc2c(c1)N(C(=O)OC(C)C)[C@@H](CSC)C(=S)N2", "strain or isolate": "MN", "read by": "p24", "result": "0.006 µM"}
{"structure": "C/C=C(/C)C(=O)OC1c2cc3c(c(OC)c2-c2c(cc4c(c2OC)OCO4)C[C@H](C)[C@]1(C)O)OCO3", "strain or isolate": "IIIB", "read by": "p24", "result": "20 µg/mL"}
{"structure": "COc1cccc(-c2c(C)nc3c(N4CC[C@@H](NC(C)=O)C4)cc(C)nn23)c1", "read by": "p24", "result": ">1 µM"}
{"structure": "CCOC(=O)c1cc(C(=O)c2ccccc2)n2ccc(C(=O)NCc3ccco3)cc12", "read by": "p24 / antigen", "result": "19.3 µM"}

For reference, 3 entries again:

structure	strain or isolate	read by	conditions	result
Cc1cc(C)cc(CNc2nc3cc(C(=O)NC(C)(CO)CO)ccc3n2C2CCCCCC2)c1		syncytia	2% FBS	0.75 µM
CC(=O)OC[C@]12[C@H](OC(C)=O)[C@H](OC(C)=O)[C@@H]3[C@@H](OC(C)=O)[C@@]14O[C@@]3(C)COC(=O)c1cnccc1[C@@H](C)[C@@](C)(O)C(=O)O[C@@H]([C@H](OC(=O)c1ccoc1)[C@@H]2OC(C)=O)C4(C)O		p24		0.1 µg/mL
COc1ccccc1C(=O)Nc1ccccc1C(O)c1ccc([N+](=O)[O-])cc1	LAI			34 µM